# The entries are a selection whose mix differs from that of the whole data set. Activity calls are given as the source filed them. No stated cut-off is given here; in the data, active means activity above about 50% (passing the limit was not always enough); inconclusive means no clear call, values can overlap the other calls.
# Tested on: DNA topoisomerase I (Yersinia pestis CO92)
# Test: Yersinia pestis topoisomerase I inhibitors, primary screen, biochemical, cleavage product accumulation, plate reader, single point (AID 504884)
# Conditions: Y. pestis Topo-I cleavage product accumulation, at 10 µM, active compounds read high
row,SMILES,activity
1,O=[N+]([O-])c1cc([N+](=O)[O-])c(Nc2nnnn2CCO)c([N+](=O)[O-])c1,inactive: 5.54%
2,CC1=C2N=C(C=C3N=C(C(C)=C4[N-][C@@](C)([C@@H]5N=C1[C@](C)(CCC(=O)NC[C@@H](C)OP(=O)([O-])O[C@H]1[C@@H](O)[C@@H](n6cnc7cc(C)c(C)cc76)O[C@@H]1CO)[C@H]5CC(N)=O)[C@@](C)(CC(N)=O)[C@@H]4CCC(N)=O)[C@@](C)(CC(N)=O)[C@@H]3CCC(N)=O)C(C)(C)[C@@H]2CCC(N)=O.[C-]#N.[Co+3],inactive: -2.05%
3,CCOC(=O)C(CC)C1=NC(C)(C)Cc2ccccc21.O=[N+]([O-])c1cc([N+](=O)[O-])c(O)c([N+](=O)[O-])c1 (stereo unspecified),inactive: -0.211%
4,CP(=O)(Nc1ccc(SC(F)(F)F)cc1)Oc1ccccc1 (stereo unspecified),inactive: 25.5%
5,CCCOc1ccc(NP(C)(=O)Oc2ccc(Cl)cc2)cc1 (stereo unspecified),inactive: 46.8%
6,COc1ccccc1OP(C)(=O)Nc1c(C)cccc1C (stereo unspecified),inactive: -7.27%
7,CN1CCCCC1COC(=O)C1(O)c2ccccc2CCc2ccccc21 (stereo unspecified),inactive: 0.856%
8,O=[N+]([O-])c1cc([N+](=O)[O-])c(-n2nnc3ccccc32)c([N+](=O)[O-])c1,inactive: -2.09%
9,Cc1nc2ccc3ccccc3c2s1.O=[N+]([O-])c1cc([N+](=O)[O-])c(O)c([N+](=O)[O-])c1,inactive: 0.201%
10,O=[N+]([O-])c1cc([N+](=O)[O-])c(-c2cnn(-c3ccccc3)c2)c([N+](=O)[O-])c1,inactive: -9.54%
11,Cc1cc(C)cc(OP(C)(=O)Nc2ccc(C)cc2C)c1 (stereo unspecified),inactive: 13.1%
12,CCOC(=O)c1ccc(NP(C)(=O)Oc2cc(C)cc(C)c2)cc1 (stereo unspecified),inactive: 23.1%
13,COc1ccccc1OP(C)(=O)Nc1cccc(Br)c1 (stereo unspecified),inactive: 12.1%
14,CP(=O)(Nc1cccc(Br)c1)Oc1ccccc1 (stereo unspecified),inactive: 10.6%
15,Cc1cc(C)cc(OP(C)(=O)Nc2ccccn2)c1 (stereo unspecified),inactive: 4.23%
16,Cc1ccc(C)c(NP(C)(=O)Oc2ccccc2)c1 (stereo unspecified),inactive: 5.48%
17,O=C(O)c1cccc(Nc2c([N+](=O)[O-])cc([N+](=O)[O-])cc2[N+](=O)[O-])c1,inactive: 0.179%
18,CC1=NCCc2c1[nH]c1ccccc21.O=[N+]([O-])c1cc([N+](=O)[O-])c(O)c([N+](=O)[O-])c1,inactive: 7.47%
19,CC(C)(C)c1ccc(OP(C)(=O)Nc2ccc(SC(F)(F)F)cc2)cc1 (stereo unspecified),inactive: -1.86%

row,SMILES,activity
1,Cc1cccc(C)c1OP(C)(N)=O (stereo unspecified),inactive: -3.22%
2,O=[N+]([O-])c1ccc2c(c1)C=Nc1ccccc1O2,inactive: -6.45%
3,O=[N+]([O-])c1cc([N+](=O)[O-])c(Nc2cccnc2)c([N+](=O)[O-])c1,inactive: -0.928%
4,COc1ccccc1OP(C)(=O)Nc1cc(Cl)ccc1C (stereo unspecified),inactive: 4.51%
5,COc1ccc(OP(C)(=O)Nc2cccc(F)c2)cc1 (stereo unspecified),inactive: -5.59%
6,Cc1cc(C)cc(OP(C)(N)=O)c1 (stereo unspecified),inactive: -5.93%
7,CCOC(=O)c1ccc(NP(C)(=O)Oc2ccccc2)cc1 (stereo unspecified),inactive: -0.442%
8,COc1ccccc1OP(C)(=O)Nc1ccc(C)cc1 (stereo unspecified),inactive: 11.9%
9,Cc1ccc(NP(C)(=O)Oc2ccccc2)c(C)c1 (stereo unspecified),inactive: -0.54%
10,CCN(CC)CCCOC(=O)C(O)(c1ccccc1)c1ccccc1,inactive: 7.12%
11,CCc1ccc(OP(C)(=O)N2CCN(c3ccc([N+](=O)[O-])cc3)CC2)cc1 (stereo unspecified),inactive: 15.3%
12,CP(=O)(NC(=O)Nc1ccccc1)Oc1ccccc1 (stereo unspecified),inactive: -0.257%
13,Cc1cc(C)cc(OP(C)(=O)Nc2ccc(SC(F)(F)F)cc2)c1 (stereo unspecified),inactive: 0.285%
14,Cc1cccc(C)c1OP(C)(=O)Nc1ccc(SC(F)(F)F)cc1 (stereo unspecified),inactive: -3.08%
15,Cc1ccc(Nc2c([N+](=O)[O-])cc([N+](=O)[O-])cc2[N+](=O)[O-])cc1,inactive: -10.3%
16,CP(=O)(Nc1ccc(SC(F)(F)F)cc1)Oc1ccc(Cl)cc1 (stereo unspecified),inactive: 10.2%
17,CP(=O)(Oc1ccccc1)OC(c1ccccc1)C(F)(F)F (stereo unspecified),inactive: -14.1%
18,CP(=O)(Nc1ccccn1)Oc1ccc(Cl)cc1 (stereo unspecified),inactive: 7.99%
19,CCOP(C)(=S)SCC(=O)NC(C)C(=O)O (stereo unspecified),inactive: -4.55%

row,SMILES,activity
1,CCOC(=O)c1ccc(NP(C)(=O)Oc2ccc(OC)cc2)cc1 (stereo unspecified),inactive: 11.3%
2,O=[N+]([O-])c1cc([N+](=O)[O-])c(O)c([N+](=O)[O-])c1.c1ccc(Oc2ccncc2)cc1,inactive: 1.26%
3,COc1ccccc1OP(C)(=O)Nc1ccccc1 (stereo unspecified),inactive: 11.6%
4,CP(=O)(Nc1ccccc1Br)Oc1ccccc1 (stereo unspecified),inactive: 2%
5,CP(=S)(Nn1cnnc1)Oc1ccccc1 (stereo unspecified),inactive: -5.16%
6,CP(=O)(OC12CC3CC(CC(C3)C1)C2)OC12CC3CC(CC(C3)C1)C2,inactive: 14.2%
7,CCOC(=O)c1ccc(NP(C)(=O)Oc2ccc(Cl)cc2)cc1 (stereo unspecified),inactive: 8.04%
8,CP(=O)(Oc1ccccc1)N1CCOC1=O (stereo unspecified),inactive: -1.23%
9,CCc1ccc(OP(C)(=O)Nc2cccnc2)cc1 (stereo unspecified),inactive: -4.59%
10,COc1ccccc1OP(C)(=O)Nc1c(C)n(C)n(-c2ccccc2)c1=O (stereo unspecified),inactive: -0.0055%
11,O=C(OCCCN1CCCC1)C(O)(c1ccccc1)C1CCCCC1 (stereo unspecified),inactive: -4.22%
12,CCN(CC)CC(O)COC(=O)C(O)(c1ccccc1)C1CCCCC1 (stereo unspecified),inactive: -3.26%
13,COc1ccc(OP(C)(=O)Nc2ccc(Br)cc2)cc1 (stereo unspecified),inactive: 2.18%
14,CN(C)C(=O)c1c([N+](=O)[O-])cc([N+](=O)[O-])cc1[N+](=O)[O-],inactive: -14.9%
15,CP(=O)(Nc1ccc(Cl)cc1)Oc1ccc(F)cc1 (stereo unspecified),inactive: -10.3%
16,CC(C)(C)c1ccc(OP(C)(=O)O)cc1,inactive: 6.95%
17,COc1ccccc1OP(C)(=O)Nc1ccccc1Br (stereo unspecified),inactive: 1.36%
18,CN(C)CCOC(=O)C(O)(c1ccccc1)C1CCCC1 (stereo unspecified),inactive: 5.26%
